Results published in article PMC3630508 (Molecular immunology, 2012).

By UniProt entry, the sequences of proteins in these tests, tags left out. Residues count along the entry.
UniProt P02745, 23-245: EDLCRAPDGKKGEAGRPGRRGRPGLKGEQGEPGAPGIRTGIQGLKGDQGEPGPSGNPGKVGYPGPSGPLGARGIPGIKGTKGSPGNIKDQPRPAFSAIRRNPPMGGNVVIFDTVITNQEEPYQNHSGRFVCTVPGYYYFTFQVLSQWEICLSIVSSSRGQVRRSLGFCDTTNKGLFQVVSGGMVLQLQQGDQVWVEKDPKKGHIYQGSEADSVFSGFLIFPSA
human C1q, UniProt P02746, 28-253: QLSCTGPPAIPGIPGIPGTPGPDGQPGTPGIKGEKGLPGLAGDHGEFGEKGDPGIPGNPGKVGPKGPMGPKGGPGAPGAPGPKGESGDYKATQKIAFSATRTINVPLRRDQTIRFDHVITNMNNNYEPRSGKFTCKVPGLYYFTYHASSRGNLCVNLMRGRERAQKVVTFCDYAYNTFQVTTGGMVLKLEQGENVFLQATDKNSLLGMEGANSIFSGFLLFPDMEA
human C1q, UniProt P02747, 29-245: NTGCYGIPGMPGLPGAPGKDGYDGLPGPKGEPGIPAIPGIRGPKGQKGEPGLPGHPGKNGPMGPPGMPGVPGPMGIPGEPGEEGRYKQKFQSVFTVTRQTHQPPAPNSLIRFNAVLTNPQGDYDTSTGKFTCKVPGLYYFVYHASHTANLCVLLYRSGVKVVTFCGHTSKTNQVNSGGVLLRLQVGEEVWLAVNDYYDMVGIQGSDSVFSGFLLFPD

Columns and labels:
[1] = molecular target: coat protein peptide Δ8-22 (human astrovirus type 1); experiment: SPR
[2] = molecular target: coat protein peptide E23A (human astrovirus type 1); experiment: SPR

## human C1q (from UniProt P02745 23-245; P02746 28-253; P02747 29-245) (complex)
[1]
  Kd: 5.43 nM
  koff: 0.00106 s⁻¹
  kon: 198000 M⁻¹ s⁻¹
[2]
  Kd: 6.08 nM
  koff: 0.000652 s⁻¹
  kon: 111000 M⁻¹ s⁻¹
